Results as given in PubChem BioAssay AID504884 (Broad Institute, 2011).
This is a selection; strong and weak results do not stand in their true shares. The source made the active and inactive calls. No stated cut-off is given here; in the data, active means activity above about 50% (passing the limit was not always enough); inconclusive means no clear call, values can overlap the other calls.

These molecules were tested on DNA topoisomerase I (Yersinia pestis CO92) (assay: Yersinia pestis topoisomerase I inhibitors, primary screen, biochemical, cleavage product accumulation, plate reader, single point (AID 504884)). Conditions: Y. pestis Topo-I cleavage product accumulation, at 10 µM, hits give high values.

**Q.** Which activity does the source give for `Cc1cc(SC(NC(=O)c2ccccc2)C(Cl)(Cl)Cl)nc(C(C)C)n1` (stereo unspecified) here?
**A.** inactive: -0.356%

**Q.** With `ClCCSc1nnc(-c2cccnc2)o1` as the molecule, how does the activity read?
**A.** inactive: 5.42%

**Q.** `COC(=O)C1(C)COP(=O)(N2CCCCCC2)OC1` (stereo unspecified) was tested. Which activity did it give?
**A.** inactive: 6.02%

**Q.** Which activity does the source give for `CC(C)c1ccc(OP(=O)(Nc2ccccn2)Oc2ccccc2F)cc1` (stereo unspecified) here?
**A.** inactive: 20.3%

**Q.** Which activity does the source give for `CC(C)NC(=O)NP(=O)(Oc1ccccc1)Oc1ccccc1` here?
**A.** inactive: -2.32%

**Q.** For `CCN(CC)C(=S)SC(NC=O)C(Cl)(Cl)Cl` (stereo unspecified), which activity is on record?
**A.** inactive: -5.66%

**Q.** With `O=C(OC1CN2CCC1CC2)c1cccc2[nH]cnc12` (stereo unspecified) as the molecule, how does the activity read?
**A.** inactive: 7.07%

**Q.** With `O=[N+]([O-])c1cc([N+](=O)[O-])c(-c2ccn[nH]2)s1` as the molecule, how does the activity read?
**A.** inactive: 1.51%

**Q.** With `O=[As](O)(c1ccc(O)cc1)c1ccccc1O` as the molecule, how does the activity read?
**A.** inactive: 5.86%

**Q.** Which activity does the source give for `C[As](=O)(O)c1cccc(C(=O)O)c1` here?
**A.** inactive: 6.23%

**Q.** Which activity does the source give for `O=[N+]([O-])c1ccc(-c2cc([N+](=O)[O-])c(O)c([N+](=O)[O-])c2)cc1` here?
**A.** inactive: -6.03%

**Q.** `COc1cc(C(=O)NCC2(N3CCOCC3)CCCCC2)ccc1OCC(C)C` was tested. Which activity did it give?
**A.** inactive: 26.8%

**Q.** With `Cc1ccc(OP(=O)(Nc2ccc([N+](=O)[O-])cn2)Oc2ccc(C)cc2)cc1` as the molecule, how does the activity read?
**A.** inactive: 7.48%

**Q.** For `Cc1ccc2nc3c(c(C)c2c1)CC(C(Cl)Cl)S3` (stereo unspecified), which activity is on record?
**A.** inactive: 11.7%

**Q.** With `O=[N+]([O-])c1cc(Oc2ccc([N+](=O)[O-])cc2C(F)(F)F)cc([N+](=O)[O-])c1` as the molecule, how does the activity read?
**A.** inactive: -10.2%

**Q.** For `COc1ccc(N/C(=N/P(=O)(N2CCOCC2)N2CCOCC2)N2CCOCC2)cc1`, which activity is on record?
**A.** inactive: -0.992%

**Q.** With `Cc1c2c(nc3ccccc13)SC(C(Cl)Cl)C2` (stereo unspecified) as the molecule, how does the activity read?
**A.** inactive: 20.5%

**Q.** With `O=C(OC1CN2CCC1CC2)C12CC3CC(CC(C3)C1)C2` (stereo unspecified) as the molecule, how does the activity read?
**A.** inactive: 3.58%

**Q.** How did the activity turn out when `Cc1cc(=O)[nH]c(N[N+](=O)[O-])n1` was run?
**A.** inactive: 1.55%

**Q.** `O=P1(N(CCCl)CCCl)Nc2ccccc2N1` was tested. Which activity did it give?
**A.** inactive: 8.08%

**Q.** Which activity does the source give for `O=P1(N(CCCl)CCCl)OCCCN1CCCl` (stereo unspecified) here?
**A.** inactive: 3.86%

**Q.** `COc1ccc2nc(NP(=O)(c3ccccc3)c3ccccc3)sc2c1` was tested. Which activity did it give?
**A.** inactive: -4.27%

**Q.** With `COc1cc(I)ccc1[As](=O)(O)O` as the molecule, how does the activity read?
**A.** inactive: 2.99%

**Q.** With `Cc1ccc(NCCc2c([N+](=O)[O-])cc([N+](=O)[O-])cc2[N+](=O)[O-])cc1` as the molecule, how does the activity read?
**A.** inactive: -15.8%

**Q.** How did the activity turn out when `Nc1cccc2c([As](=O)(O)O)cccc12` was run?
**A.** inactive: -3.36%

**Q.** `CCCOP(=S)(Nc1nc(N)cc(=O)[nH]1)OCCC` was tested. Which activity did it give?
**A.** inactive: 2.59%

**Q.** With `COc1cc(C2NCCC3(OCCO3)C2(C)C)cc(OC)c1OC` (stereo unspecified) as the molecule, how does the activity read?
**A.** inactive: -3.83%

**Q.** For `CCOP(=O)(Nc1cccc2ccccc12)OCC`, which activity is on record?
**A.** inactive: -1.44%

**Q.** For `O=C(OC1CN2CCC1CC2)c1ccc(Cl)cc1` (stereo unspecified), which activity is on record?
**A.** inactive: -0.842%

**Q.** `O=[As](O)(O)c1cccnc1` was tested. Which activity did it give?
**A.** inactive: 3.69%

**Q.** `COc1cc(C(=O)NCC2(N3CCOCC3)CCCCC2)cc(Cl)c1OC(C)C` was tested. Which activity did it give?
**A.** inactive: 0.106%

**Q.** For `CS(=O)(=O)c1ccc(Cl)c(NC(=O)COC(=O)C(O)(c2ccccc2)c2ccccc2)c1`, which activity is on record?
**A.** inactive: 1.48%

**Q.** `Cc1cccc(OCC(=O)OC2CN3CCC2CC3)c1` (stereo unspecified) was tested. Which activity did it give?
**A.** inactive: -1.9%

**Q.** Which activity does the source give for `O=[As](O)(c1cccc(O)c1)c1cccc(O)c1` here?
**A.** inactive: 2.13%

**Q.** `NC(=O)Nc1ccc([As](=O)(O)O)cc1` was tested. Which activity did it give?
**A.** inactive: 1.68%

**Q.** For `N#CCCN(C(=O)COC(=O)C(O)(c1ccccc1)c1ccccc1)c1ccc(F)cc1`, which activity is on record?
**A.** inactive: 2.47%

**Q.** For `CN(C(=O)Cc1ccccc1)[C@@H]1CC[C@]2(CCCO2)C[C@H]1N1CCCC1`, which activity is on record?
**A.** inactive: 1.94%

**Q.** `CCOP1(=S)c2c(C)nn(CCC#N)c2N=C(c2ccc(F)cc2)N1C` (stereo unspecified) was tested. Which activity did it give?
**A.** inactive: 6.41%

**Q.** With `O=[N+]([O-])c1ccc2c(c1)nnn2O` as the molecule, how does the activity read?
**A.** inactive: -4.28%

**Q.** How did the activity turn out when `CN(C)C(=O)c1cc([N+](=O)[O-])cc2c1-c1c(cc([N+](=O)[O-])cc1[N+](=O)[O-])C2=O` was run?
**A.** inactive: -7.83%

**Q.** `CN(C(=O)Cc1ccc(Cl)c(Cl)c1)[C@H]1CC[C@@]2(CCCO2)C[C@@H]1N1CCCC1` was tested. Which activity did it give?
**A.** inactive: -6.46%

**Q.** `CCOP1(=S)c2c(C)nn(CCC#N)c2N=C(c2ccccc2F)N1C` (stereo unspecified) was tested. Which activity did it give?
**A.** inactive: 11.2%

**Q.** Which activity does the source give for `O=P(Nc1nccs1)(Oc1ccccc1)Oc1ccccc1` here?
**A.** inactive: 8.52%

**Q.** Which activity does the source give for `O=P(Nc1nccs1)(c1ccccc1)c1nc2ccccc2s1` (stereo unspecified) here?
**A.** inactive: -1.84%

**Q.** Which activity does the source give for `CS(=O)(=O)c1cc([N+](=O)[O-])c2no[n+]([O-])c2c1` here?
**A.** inactive: -4.81%

**Q.** How did the activity turn out when `O=C(O)COc1ccc([As](=O)(O)O)cc1[N+](=O)[O-]` was run?
**A.** inactive: -2.49%

**Q.** For `Nc1ccccc1[As](=O)(O)c1ccccc1`, which activity is on record?
**A.** inactive: 3.19%

**Q.** With `O=P1(Nc2ncccn2)COc2ccccc2OC1` as the molecule, how does the activity read?
**A.** inactive: 2.37%

**Q.** For `Nc1cccc([As](=O)(O)c2ccccc2)c1`, which activity is on record?
**A.** inactive: -11.8%

**Q.** With `Cc1ccc(OCC(=O)OC2CN3CCC2CC3)cc1` (stereo unspecified) as the molecule, how does the activity read?
**A.** inactive: -4.83%

**Q.** `O=[As](O)(c1cccs1)c1cccs1` was tested. Which activity did it give?
**A.** inactive: 9.57%

**Q.** With `NS(=O)(=O)c1cccc(NC(=O)COC(=O)C(O)(c2ccccc2)c2ccccc2)c1` as the molecule, how does the activity read?
**A.** inactive: -12.3%

**Q.** With `O=P1(Nc2ccc(Br)cn2)COc2ccccc2OC1` as the molecule, how does the activity read?
**A.** inactive: 4%

**Q.** For `Cc1nn(-c2ccccc2)c2c1P(=O)(N1CCOCC1)N(C)C(c1ccccc1)=N2` (stereo unspecified), which activity is on record?
**A.** inactive: 4.26%

**Q.** How did the activity turn out when `Cc1ccc(C(=O)OC2CN3CCC2CC3)cc1` (stereo unspecified) was run?
**A.** inactive: 10.1%

**Q.** How did the activity turn out when `CC1CCC(C(C)C)C(OP(=O)(Nc2ccccn2)c2ccccc2)C1` (stereo unspecified) was run?
**A.** inactive: 10.5%

**Q.** `CN(C)C1(CNC(=O)c2ccc(S(C)(=O)=O)cc2)CCCCC1` was tested. Which activity did it give?
**A.** inactive: 9%

**Q.** `O=C(/C=C/c1ccccc1)OC1CN2CCC1CC2` (stereo unspecified) was tested. Which activity did it give?
**A.** inactive: -1.64%

**Q.** `CCCC1OP(=O)(Nc2ccccc2)OCC1CC` (stereo unspecified) was tested. Which activity did it give?
**A.** inactive: 5.32%

**Q.** For `COc1ccccc1CNC(=O)COC(=O)C(O)(c1ccccc1)c1ccccc1`, which activity is on record?
**A.** inactive: 6.38%

**Q.** With `CN(C(=O)Cc1ccc(Cl)c(Cl)c1)[C@@H]1CCCC[C@H]1N1CCCC1` as the molecule, how does the activity read?
**A.** inactive: -3.6%

**Q.** For `CC(C)/C=N\N=C(\N)N[N+](=O)[O-]`, which activity is on record?
**A.** inactive: -3.65%

**Q.** With `CC1(CBr)Cn2c(nc3ccccc3c2=O)S1` (stereo unspecified) as the molecule, how does the activity read?
**A.** inactive: -4.09%

**Q.** Which activity does the source give for `CCC1=CC2Cc3nc4ccc(Cl)cc4c(N)c3C(C1)C2` (stereo unspecified) here?
**A.** inactive: 5.04%

**Q.** With `O=P1(Nc2ccccn2)COc2ccccc2OC1` as the molecule, how does the activity read?
**A.** inactive: 6.1%

**Q.** `CCOP(=O)(NC(=NC(C)c1ccccc1)NC(C)c1ccccc1)OCC` (stereo unspecified) was tested. Which activity did it give?
**A.** inactive: 26.9%

**Q.** `CCOP(=O)(Nc1ccc(C)cn1)OCC` was tested. Which activity did it give?
**A.** inactive: 3.53%

**Q.** For `CN(CCCl)Cc1cc(Cl)c(NC2=NCCN2)c(Cl)c1`, which activity is on record?
**A.** inactive: 0.572%

**Q.** For `Clc1n[nH]nc1-c1nn[nH][15n]1`, which activity is on record?
**A.** inactive: 2.57%

**Q.** `O=P1(N(CCCl)CCCl)NCCC(C(F)(F)F)O1` (stereo unspecified) was tested. Which activity did it give?
**A.** inactive: 2.31%

**Q.** For `CC(C)(C)C(=O)NC(Sc1ncccn1)C(Cl)(Cl)Cl` (stereo unspecified), which activity is on record?
**A.** inactive: 5.51%
